According to PMC6215995 (International Journal for Parasitology: Drugs and Drug …, 2018):

Assays:
P. falciparum 3D7 = test: Antiplasmodial SYBR green assay, CQ-sensitive strain; format: cell-based; conditions: ratio between MDL50 and IC50, 3D7
Experimental: Briefly, the plates were centrifuged at 700g for 5 min at room temperature to remove the medium, washed with PBS and incubated for 30 min with lysis buffer solution [2.4228 g TRIS, ultra-pure for 20 mM solution, pH 7.5; 1.8612 g of EDTA 5 mM ultrapure for 5 mM solution; 80 μg Saponin (0.008% w/v); 800 μL of Triton X-100 (0.08% v/v); water Type I] and SYBR green I DNA stain (1:20000). The fluorescence of uninfected erythrocytes was considered as background.
(§1) The half-maximal drug inhibitory concentration (IC50) was estimated by curve fitting using the software from the OriginLab Corporation (USA) and compared to the parasite growth in the drug-free medium.

P. falciparum K1 = test: Antiplasmodial SYBR green assay, multidrug-resistant strain; format: cell-based; conditions: ratio between MDL50 and IC50, K1
Experimental: The freshly sorbitol synchronized ring stages were immediately incubated with the test compounds at various concentrations (from 10 to 0.152 μM or 1.0–0.0152 μM) that were previously solubilized in 0.05% dimethyl sulfoxide (DMSO) (v/v) ([Lambros and Vanderberg, 1979]). […] The antiplasmodial activity of the compounds was measured through SYBR green assay ([Smilkstein et al., 2004]). Briefly, the plates were centrifuged at 700g for 5 min at room temperature to remove the medium, washed with PBS and incubated for 30 min with lysis buffer solution [2.4228 g TRIS, ultra-pure for 20 mM solution, pH 7.5; 1.8612 g of EDTA 5 mM ultrapure for 5 mM solution; 80 μg Saponin (0.008% w/v); 800 μL of Triton X-100 (0.08% v/v); water Type I] and SYBR green I DNA stain (1:20000). The fluorescence of uninfected erythrocytes was considered as background. Fluorescence was measured on fluorimeter (SpectraMax340PC384) at 485/535 nm.
as §1

N-(4-(dimethylamino)but-2-enyl)-7-chloro-quinolin-4-amine [DAQ]
Selective index 3D7 (P. falciparum 3D7): 32195
Selective index K1 (P. falciparum K1): 29620

N-(prop-2-enyl)-7-chloroquinoline-4-amine [PCQ]
Selective index 3D7 (P. falciparum 3D7): 1079
Selective index K1 (P. falciparum K1): 1005
